The text below walks through data of US5756684.

Protein sequences, listed by entry. Tags and fused reporters are not part of them. Residues count along the entry.
UniProt Q00577, 1-314: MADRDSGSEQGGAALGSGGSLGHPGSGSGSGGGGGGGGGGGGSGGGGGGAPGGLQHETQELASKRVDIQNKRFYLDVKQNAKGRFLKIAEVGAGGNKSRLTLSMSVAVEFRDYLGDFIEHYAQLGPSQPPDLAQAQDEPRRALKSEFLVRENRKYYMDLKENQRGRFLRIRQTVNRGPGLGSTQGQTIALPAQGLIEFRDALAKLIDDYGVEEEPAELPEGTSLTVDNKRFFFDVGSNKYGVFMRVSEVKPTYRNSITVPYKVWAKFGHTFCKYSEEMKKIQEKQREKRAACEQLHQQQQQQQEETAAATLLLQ

The exact form of at least one protein or probe is not confirmed.

This series addresses GST-Pur-alpha 1-314 (Homo sapiens) (UniProt Q00577). Description: EMSA. As to conditions: acidic region removed; still shows binding enhancement by Tat; purified recombinant protein; protein details: N-terminal GST; label: 32P end; single-stranded DNA. On the technique in general: In EMSA bound probe runs differently from free probe, usually more slowly.

Turning to “GGAGGCGGAGGCGGAGGCGGAGGC [JCV+ (upTAR purine-rich strand dimer)]”, the binding result is “binds”.
